# Test results taken from ChEMBL document CHEMBL1201862, “PubChem BioAssay data set” (2004).
# This is one part of the list. Only a part of the results of these assays is listed, not drawn at random. Active and inactive are the calls of the source. No cut-off for these calls is given here.
# Tested on: Plasmodium falciparum
# Experiment: Primary qHTS for delayed death inhibitors of the malarial parasite plastid, 96 hour incubation. [Related pubchem assays (depositor defined):AID488745, AID488752, AID488774, AID504848, AID504850]
# Assay type: functional
row,SMILES,Potency
1,CCc1nc2c([nH]1)c1no[n+]([O-])c1c1no[n+]([O-])c21,active: 4.65 µM
2,CCOC(=O)C(CC)C1=NC(C)(C)Cc2ccccc21 (configuration not stated),inactive
